{"source": "ChEMBL document CHEMBL1629661", "about": "“Carbapenem resistance among Pseudomonas aeruginosa strains from India: evidence for nationwide endemicity of multiple metallo-beta-lactamase clones (VIM-2, -5, -6, and -11 and the newly characterized VIM-18)” (2009)", "system": "Escherichia coli", "experiment": "Ratio of MIC for Escherichia coli harboring beta-lactamase VIM-2 to MIC for Escherichia coli harboring beta-lactamase VIM-18", "format": "functional", "data": [{"smiles": "CC1(C)S[C@@H]2[C@H](NC(=O)[C@H](N)c3ccccc3)C(=O)N2[C@H]1C(=O)O", "note": "[AMPICILLIN]", "values": [{"measurement": "Ratio", "result": ">3"}]}]}
